Compound potency records, mixed from different reports. Data source: NIAID ChemDB in PubChem.

Shared fields: growth or infection tests; organism: Mycobacterium avium

A number after MIC or MFC names an inhibition level or a share of isolates. Blank or dashed fields: not listed here. ECn: concentration that inhibits the pathogen or its effect by n%. Neighbouring rows are from separate reports. Inhibition is in % at the dose shown (toxicity tests: loss of growth or viability).

smiles	strain or isolate	method	conditions	read-out	dose	result
CC(O)c1cn([C@H]2C[C@H](O)[C@@H](CO)O2)c(=O)[nH]c1=O	ATCC 25291	-	-	EC50	-	<5 µg/mL
Clc1ccc(Nc2nnc(-c3ccncc3)o2)cc1Cl	MY330/88	broth dilution	14 d	MIC100	-	>125 µM
NNC(=O)c1ccncc1	168-4	-	-	MBC	-	160 µg/mL
CO[C@H]1O[C@@H](n2ccc(=O)[nH]c2=O)C[C@@H]1N=[N+]=[N-]	ATCC 25291	-	-	EC50	-	>50 µg/mL
CCCCCc1ccc(NC(=O)NNC(=O)c2ccncc2)cc1	MY330/88	broth dilution	21 d	MIC100	-	125 µM
O=c1[nH]c(=O)n([C@@H]2O[C@H](CO)[C@@H](O)[C@H]2O)cc1/C=C/Br	ATCC 25291	-	-	inhibition	50 µg/mL	0%
Cc1nc2ccc(Cl)cn2c1C(=O)NCc1ccc(N2C[C@H](C)N(c3ccc(OCC(F)(F)F)nc3)C[C@H]2C)c(F)c1.Cl	-	fluorescence	-	inhibition	0.1 µM	85%
CCCCCCc1ccc(NC(=O)NNC(=O)c2ccncc2)cc1	MY330/88	broth dilution	21 d	MIC100	-	62.5 µM
CCCCOc1ccc(N2CCC(c3ccc(CNC(=O)c4c(CC)nc5ccc(Cl)cn45)cc3F)CC2)nc1.Cl	-	fluorescence	-	inhibition	0.037 µM	85%
NNC(=O)c1ccncc1	MY330/88	broth dilution	14 d	MIC100	-	>250 µM
[2H]c1c(C([2H])([2H])[2H])c([2H])n2c(C(=O)NCc3ccc(S(F)(F)(F)(F)F)cc3)c(C)nc2c1[2H]	-	fluorescence	-	inhibition	0.11 µM	85%
O=c1[nH]c(=O)n([C@H]2C[C@H](F)[C@@H](CO)O2)cc1Cl	ATCC 25291	-	-	inhibition	50 µg/mL	0%
Cc1cn2c(C(=O)NCc3ccc(-c4ccc(OC(C)C)cc4)c(F)c3)c(C)nc2s1	-	fluorescence	-	inhibition	0.37 µM	85%
O=c1[nH]c(=O)n([C@@H]2O[C@H](CO)[C@@H](O)[C@H]2O)cc1F	ATCC 25291	-	-	inhibition	50 µg/mL	0%
CCc1nc2cc(F)ccn2c1C(=O)NCc1ccc(N2CCN(c3ccc(OC(C)C)cc3)[C@@H](C)C2)c(F)c1.Cl	-	fluorescence	-	inhibition	0.0071 µM	85%
CCCCCCCCc1ccc(NC(=O)NNC(=O)c2ccncc2)cc1	MY330/88	broth dilution	14 d	MIC100	-	250 µM
CC[C@H]1CN(c2ccc(CNC(=O)c3c(C)nn4ccc(OC)cc34)cc2F)CCN1c1ccc(OC(F)(F)F)cc1.Cl	-	fluorescence	-	inhibition	0.019 µM	85%
O=c1[nH]c(=O)n([C@H]2C=C[C@@H](CO)O2)cc1I	ATCC 25291	-	-	EC50	-	>50 µg/mL

The first 2 rows once more:

smiles	strain or isolate	method	conditions	read-out	dose	result
CC(O)c1cn([C@H]2C[C@H](O)[C@@H](CO)O2)c(=O)[nH]c1=O	ATCC 25291	-	-	EC50	-	<5 µg/mL
Clc1ccc(Nc2nnc(-c3ccncc3)o2)cc1Cl	MY330/88	broth dilution	14 d	MIC100	-	>125 µM